Measurements reported in PubChem BioAssay AID1259414 (Drosophila RNAi Screening Center, 2018).

- Assay: 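Fly genes that alter Wolbachia amount inside host cells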 (primary screen)
- Cell system: Drosophila JW18 cells infected with Wolbachia
- Reagents: long dsRNA against Drosophila genes, 0.25 µg dsRNA per well of a 384-well plate
- Timing: 5 days
- Treatment: cells persistently infected with Wolbachia before knock-down; no added drug
- Measurement: 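Imaged fluorescence in situ signal for Wolbachia 23S rRNA per DAPI-counted host cell, given as a robust z-score within each plate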
- Direction: Wolbachia per cell robust z: higher = more Wolbachia per host cell than the plate typical
- Hit rule: 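Active if absolute robust z reaches 1.5 in two or more of three replicates, leaving out multi- or no-target dsRNAs, genes unexpressed in JW18 and A1 wells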
In all, the deposit lists about 24,000 reagents; this is an unselected part of those that have a named target and a result. Over the whole deposit, about 1,210 (5%) were called active. 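Inactive calls also include excluded dsRNAs with several or no targets, genes unexpressed in JW18, and well A1, regardless of score.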 Names joined by + are all predicted targets of the reagent.

Culd (CUB and LDLa domain) [DRSC10262]
- Wolbachia per cell robust z, rep 1: 0.651
- Wolbachia per cell robust z, rep 2: -0.584
- Wolbachia per cell robust z, rep 3: 0.978
- call: inactive

tej (tejas) [DRSC07219]
- Wolbachia per cell robust z, rep 1: -0.151
- Wolbachia per cell robust z, rep 2: 1.97
- Wolbachia per cell robust z, rep 3: 1.29
- call: inactive

tej (tejas) [DRSC24278]
- Wolbachia per cell robust z, rep 1: 0.447
- Wolbachia per cell robust z, rep 2: -0.688
- Wolbachia per cell robust z, rep 3: -2.34
- call: inactive

Sdc (Syndecan) [DRSC04654]
- Wolbachia per cell robust z, rep 1: 1.17
- Wolbachia per cell robust z, rep 2: 0.0264
- Wolbachia per cell robust z, rep 3: 1.05
- call: inactive

Sdc (Syndecan) [DRSC25762]
- Wolbachia per cell robust z, rep 1: 1.61
- Wolbachia per cell robust z, rep 2: 1.44
- Wolbachia per cell robust z, rep 3: 0.766
- call: inactive

Sdc (Syndecan) [DRSC38962]
- Wolbachia per cell robust z, rep 1: 1.09
- Wolbachia per cell robust z, rep 2: 0.199
- Wolbachia per cell robust z, rep 3: 0.338
- call: inactive

Sdc (Syndecan) [DRSC40846]
- Wolbachia per cell robust z, rep 1: 0.314
- Wolbachia per cell robust z, rep 2: 0.372
- Wolbachia per cell robust z, rep 3: 0.673
- call: inactive

CG42374 + Mettl5 [DRSC11085]
- Wolbachia per cell robust z, rep 1: 0.676
- Wolbachia per cell robust z, rep 2: -0.167
- Wolbachia per cell robust z, rep 3: 0.551
- call: inactive

CG11790 [DRSC14390]
- Wolbachia per cell robust z, rep 1: -1.23
- Wolbachia per cell robust z, rep 2: -2.23
- Wolbachia per cell robust z, rep 3: -0.148
- call: inactive

CG33483 [DRSC14019]
- Wolbachia per cell robust z, rep 1: -0.08
- Wolbachia per cell robust z, rep 2: 1.27
- Wolbachia per cell robust z, rep 3: 1.01
- call: inactive

Look-ups from the entries so far:
Under “Wolbachia per cell robust z, rep 2”, CG33483 [DRSC14019] shows 1.27
Value for tej (tejas) [DRSC07219] in “Wolbachia per cell robust z, rep 3”: 1.29
Entry of CG42374 + Mettl5 [DRSC11085] in “Wolbachia per cell robust z, rep 3”: 0.551

The list goes on:
ldd (lipid droplet defective) [DRSC20558]
- Wolbachia per cell robust z, rep 1: -1.2
- Wolbachia per cell robust z, rep 2: -1.45
- Wolbachia per cell robust z, rep 3: -6.6
- call: inactive

ldd (lipid droplet defective) [DRSC22696]
- Wolbachia per cell robust z, rep 1: -0.218
- Wolbachia per cell robust z, rep 2: 0.474
- Wolbachia per cell robust z, rep 3: 0.119
- call: inactive

cue (cueball) [DRSC08248]
- Wolbachia per cell robust z, rep 1: 0.797
- Wolbachia per cell robust z, rep 2: 1.44
- Wolbachia per cell robust z, rep 3: 0.884
- call: inactive

Send1 (Spermathecal endopeptidase 1) [DRSC00482]
- Wolbachia per cell robust z, rep 1: -8.3
- Wolbachia per cell robust z, rep 2: -0.476
- Wolbachia per cell robust z, rep 3: 0.544
- call: inactive

Send1 (Spermathecal endopeptidase 1) [DRSC27719]
- Wolbachia per cell robust z, rep 1: -2.76
- Wolbachia per cell robust z, rep 2: -0.469
- Wolbachia per cell robust z, rep 3: -0.263
- call: inactive

Pka-R2 (Protein kinase, cAMP-dependent, regulatory subunit type 2) [DRSC07509]
- Wolbachia per cell robust z, rep 1: -4.43
- Wolbachia per cell robust z, rep 2: -2.27
- Wolbachia per cell robust z, rep 3: -1.76
- call: active

Pka-R2 (Protein kinase, cAMP-dependent, regulatory subunit type 2) [DRSC29214]
- Wolbachia per cell robust z, rep 1: -0.706
- Wolbachia per cell robust z, rep 2: -1.18
- Wolbachia per cell robust z, rep 3: -0.354
- call: inactive

dtr (defective transmitter release) [DRSC01847]
- Wolbachia per cell robust z, rep 1: -0.569
- Wolbachia per cell robust z, rep 2: -0.137
- Wolbachia per cell robust z, rep 3: -0.74
- call: inactive

cno (canoe) [DRSC12054]
- Wolbachia per cell robust z, rep 1: 0.0851
- Wolbachia per cell robust z, rep 2: -0.934
- Wolbachia per cell robust z, rep 3: 0.372
- call: inactive

cno (canoe) [DRSC22980]
- Wolbachia per cell robust z, rep 1: -1.05
- Wolbachia per cell robust z, rep 2: -1.17
- Wolbachia per cell robust z, rep 3: -0.131
- call: inactive

cno (canoe) [DRSC25770]
- Wolbachia per cell robust z, rep 1: 0.591
- Wolbachia per cell robust z, rep 2: 0.688
- Wolbachia per cell robust z, rep 3: 1.14
- call: inactive

cno (canoe) [DRSC28027]
- Wolbachia per cell robust z, rep 1: -0.714
- Wolbachia per cell robust z, rep 2: -0.173
- Wolbachia per cell robust z, rep 3: -2.09
- call: inactive

cno (canoe) [DRSC40806]
- Wolbachia per cell robust z, rep 1: 0.617
- Wolbachia per cell robust z, rep 2: -0.0055
- Wolbachia per cell robust z, rep 3: -1.92
- call: inactive

Klp67A (Kinesin-like protein at 67A) [DRSC11205]
- Wolbachia per cell robust z, rep 1: -3.57
- Wolbachia per cell robust z, rep 2: 0.0567
- Wolbachia per cell robust z, rep 3: -0.565
- call: inactive

Klp67A (Kinesin-like protein at 67A) [DRSC26028]
- Wolbachia per cell robust z, rep 1: 0.878
- Wolbachia per cell robust z, rep 2: -0.774
- Wolbachia per cell robust z, rep 3: -0.306
- call: inactive

aru (arouser) [DRSC00802]
- Wolbachia per cell robust z, rep 1: 0.81
- Wolbachia per cell robust z, rep 2: 0.236
- Wolbachia per cell robust z, rep 3: 0.231
- call: inactive

aru (arouser) [DRSC22019]
- Wolbachia per cell robust z, rep 1: 0.345
- Wolbachia per cell robust z, rep 2: -0.482
- Wolbachia per cell robust z, rep 3: 0.146
- call: inactive

az2 [DRSC07580]
- Wolbachia per cell robust z, rep 1: 0.609
- Wolbachia per cell robust z, rep 2: -0.165
- Wolbachia per cell robust z, rep 3: -1.06
- call: inactive

CG43367 + asRNA:CR32252 [DRSC21715]
- Wolbachia per cell robust z, rep 1: -0.255
- Wolbachia per cell robust z, rep 2: -1.75
- Wolbachia per cell robust z, rep 3: -1.42
- call: inactive

GstT2 (Glutathione S transferase T2) [DRSC06244]
- Wolbachia per cell robust z, rep 1: 0.37
- Wolbachia per cell robust z, rep 2: -1.12
- Wolbachia per cell robust z, rep 3: -2.05
- call: inactive
